Data as given in PubChem BioAssay AID504761 (Drosophila RNAi Screening Center, 2011).
The screen tested about 22,000 reagents; shown is a random part of those that have a named target and a result. Over the whole deposit, 116 (0.52%) were called active. 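Calls depend on retest data that are not deposited; infection was ranked per plate without normalising between plates; the unit of the infection score is not given.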 Raw values vary from plate to plate and are shown uncorrected. Not all columns of the deposit are shown. No sequences are given here. The record does not give: the amount of reagent, the time to read-out.

- Aim: 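Genome-wide fly cell screen for genes dengue virus requires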 (primary screen)
- Cells: D.Mel-2 cells from Drosophila
- Knock-down reagent: long dsRNA against Drosophila genes
- Conditions: infection with dengue virus type 2; dose and infection time not stated
- Detection: 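Per well on two replicate plates, imaging gave the percent of cells positive for viral envelope protein, ranked by infection, and a nuclear count of cells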
- Reading the numbers: infection score: higher = more virus-infected cells; cell count: higher = more cells in the well
- Call rule: 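Low infection ranks in the two replicates (chance level up to 0.065) followed by a retest with a 1.5-fold or larger significant decrease, p below 0.05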
- Calls: active = confirmed: knock-down lowers infection; inactive = not picked or not confirmed

| target | dsRNA | infection score, replicate 1 | infection score, replicate 2 | cell count, replicate 1 | Call |
| --- | --- | --- | --- | --- | --- |
| Arpc2 (Actin-related protein 2/3 complex, subunit 2) | DRSC02113 | 4.73 | 1.72 | 6535 | inactive |
| CG6454 | DRSC16044 | 3.36 | 3.73 | 6363 | inactive |
| CG6454 | DRSC24613 | 3.77 | 14.7 | 5705 | inactive |
| Muc91C (Mucin 91C) | DRSC16297 | 7.51 | 19.8 | 5445 | inactive |
| Muc91C (Mucin 91C) | DRSC21696 | 2.98 | 4 | 6171 | inactive |
| Muc91C (Mucin 91C) | DRSC25918 | 4.84 | 7.33 | 5915 | inactive |
| Prosbeta2 (Proteasome beta2 subunit) | DRSC11257 | 0.19 | – | 517 | inactive |
| Acsf3 (Acyl-CoA synthetase family member 3) | DRSC18146 | 2.7 | 7.43 | 6344 | inactive |
| alpha-Catr (alpha-catenin related) | DRSC04669 | 1.98 | 24.5 | 1214 | inactive |
| alpha-Catr (alpha-catenin related) | DRSC28046 | 12.1 | 4.37 | 6118 | inactive |
| CG4935 | DRSC01924 | 8.14 | 3.64 | 6041 | inactive |
| tin (tinman) | DRSC17083 | 11.3 | 2.08 | 4370 | inactive |
| tin (tinman) | DRSC23248 | 1.91 | 7.06 | 7018 | inactive |
| tin (tinman) | DRSC28260 | 12.6 | 11.8 | 6047 | inactive |
| Scgbeta (Sarcoglycan beta) | DRSC15854 | 27.5 | 16.3 | 5014 | inactive |
| Ubi-p63E (Ubiquitin-63E) | DRSC22016 | 6.34 | 2.57 | 6882 | inactive |
| Cad86C (Cadherin 86C) | DRSC15587 | 3.87 | 4.17 | 6533 | inactive |
| Cad86C (Cadherin 86C) | DRSC15611 | 0.6 | 3.43 | 5864 | inactive |
| Cad86C (Cadherin 86C) | DRSC27602 | 6.69 | 10.6 | 6662 | inactive |
| Cad86C (Cadherin 86C) | DRSC28094 | 26.3 | 9.29 | 4707 | inactive |
| CG31139 | DRSC21393 | 3.4 | 12.6 | 5821 | inactive |
| CG42674 | DRSC10066 | 1.6 | 1.23 | 7080 | inactive |
| CG42674 | DRSC10067 | 8.86 | 9.65 | 6312 | inactive |
| CG42674 | DRSC10811 | 2.49 | 7.68 | 6419 | inactive |
| CG42674 | DRSC25036 | 3.33 | 2.38 | 6856 | inactive |
| CG42674 | DRSC29701 | 8.49 | 1.52 | 6528 | inactive |

Copied from the list:
For “cell count, replicate 1”, CG31139 [DRSC21393] reads 5821
CG42674 [DRSC25036], Call = inactive
Arpc2 (Actin-related protein 2/3 complex, subunit 2) [DRSC02113], infection score, replicate 1 → 4.73
CG6454 [DRSC24613], Call → inactive
